Pooled drug test results. Numbers come from NIAID ChemDB, via PubChem.

Common to all: growth or infection tests

A number after MIC or MFC names an inhibition level or a share of isolates. Rows are shuffled and stem from different studies. Blank or dashed fields: not listed here.

smiles	method	strain	changes	conditions	species	read-out	result
CCCn1cc(/C=N/Nc2nncs2)c2ccccc21	broth dilution	1173P2	-	48 h	Mycobacterium bovis BCG	MIC100	250 µg/mL
COc1cc(Cc2cnc(N)nc2N)cc(OC)c1OCCCNc1ccc(S(=O)(=O)c2ccc(N)cc2)cc1	-	ATCC 35840	-	-	Mycobacterium ulcerans	MIC	1 µg/mL
O=C(Nc1ccccc1)c1ccccc1OP(=O)(Oc1ccccc1)c1ccccc1	-	My 235/80	-	14 d	Mycobacterium kansasii	MIC	500 µM
CN(C)c1cc(NC(=O)CNC(C)(C)C)c(O)c2c1C[C@H]1C[C@H]3[C@H](N(C)C)C(=O)C(C(N)=O)=C(O)[C@@]3(O)C(=O)C1=C2O	broth dilution	X1	-	-	Mycobacterium abscessus	MIC	0.5 µg/mL
O=C(Nc1ccc(Cl)cc1)c1cc(Cl)ccc1OP(=O)(Oc1ccccc1)c1ccccc1	-	My 235/80	-	21 d	Mycobacterium kansasii	MIC	8 µM
CNc1ccc2oc(C[C@@H]3OC4(CC[C@@H]3C)O[C@H](C(C)C(=O)c3ccc[nH]3)[C@H](C)C[C@H]4C)nc2c1C(=O)O	resazurin	-	T125 insertion	-	Mycobacterium aurum	MIC	0.64 µg/mL
NNC(=S)N/N=C/c1cn(CC2CC2)c2ccccc12	broth dilution	1173P2	-	24 h	Mycobacterium bovis BCG	MIC100	>500 µg/mL
O=C1c2cc(Cl)ccc2OP(=O)(c2ccccc2)N1c1ccc(C(F)(F)F)cc1	-	My 6509/96	-	14 d	Mycobacterium kansasii	MIC	8 µM
COc1nc2ccc(Br)cc2cc1[C@@H](c1ccccc1)[C@@](O)(CCN(C)C)c1cccc2ccccc12	resazurin	-	G364T	-	Mycobacterium aurum	MIC	0.04 µg/mL
CO[C@H]1/C=C/O[C@@]2(C)Oc3c(C)c(O)c4c(O)c(c5c(c4c3C2=O)NC2(CCN(CC(C)C)CC2)N=5)=NC(=O)/C(C)=C\C=C\[C@H](C)[C@H](O)[C@@H](C)[C@@H](O)[C@@H](C)[C@H](OC(C)=O)[C@@H]1C	-	3337-4	-	-	Mycobacterium avium	MBC	32 µg/mL
O=C(Nc1ccc(C(F)(F)F)cc1)c1cc(Cl)ccc1OP(=O)(OCc1ccccc1)OCc1ccccc1	-	My 235/80	-	7 d	Mycobacterium kansasii	MIC	16 µM
CC[C@H]1OC(=O)[C@H](C)[C@@H](O[C@H]2C[C@@](C)(OC)[C@@H](O)[C@H](C)O2)[C@H](C)[C@@H](O[C@@H]2O[C@H](C)C[C@H](N(C)C)[C@H]2O)[C@](C)(OC)C[C@@H](C)C(=O)[C@H](C)[C@@H](O)[C@]1(C)O	broth dilution	V133	-	-	Mycobacterium abscessus	MIC	0.125 µg/mL
CC[C@@H](CO)NCCN[C@@H](CC)CO	-	1854-4	-	-	Mycobacterium avium complex	MBC	15 µg/mL
O=C(Nc1ccccc1)c1ccccc1OP(=O)(OCc1ccccc1)OCc1ccccc1	-	My 6509/96	-	14 d	Mycobacterium kansasii	MIC	250 µM
NNC(=S)N/N=C/c1cn(Cc2ccc(Br)cc2)c2ccccc12	broth dilution	1173P2	-	24 h	Mycobacterium bovis BCG	MIC100	>500 µg/mL
CCOc1cc(Cc2cnc(N)nc2N)cc(OCC)c1-n1cccc1	-	Isolate 94-539	-	-	Mycobacterium ulcerans	MIC	0.5 µg/mL
O=C(Nc1ccc(Br)cc1)c1cc(Cl)ccc1OP(=O)(OCc1ccccc1)OCc1ccccc1	-	My 235/80	-	7 d	Mycobacterium kansasii	MIC	32 µM
CCCn1cc(/C=N/NC(=S)NN)c2ccccc21	broth dilution	1173P2	-	48 h	Mycobacterium bovis BCG	MIC100	>500 µg/mL
O=C(Nc1ccccc1)c1ccccc1OP(=O)(c1ccccc1)c1ccccc1	-	My 235/80	-	14 d	Mycobacterium kansasii	MIC	125 µM
C(=N\Nc1nncs1)/c1c[nH]c2ccccc12	broth dilution	1173P2	-	48 h	Mycobacterium bovis BCG	MIC100	7.81 µg/mL
C[C@@H]1CN(c2c(F)c(N)c3c(=O)c(C(=O)O)cn(C4CC4)c3c2F)C[C@H](C)N1	broth dilution	8	-	-	Mycobacterium avium complex	MIC	2 µg/mL

2 of the rows above, restated:

smiles	method	strain	changes	conditions	species	read-out	result
O=C(Nc1ccc(Br)cc1)c1cc(Cl)ccc1OP(=O)(OCc1ccccc1)OCc1ccccc1	-	My 235/80	-	7 d	Mycobacterium kansasii	MIC	32 µM
CC[C@H]1OC(=O)[C@H](C)[C@@H](O[C@H]2C[C@@](C)(OC)[C@@H](O)[C@H](C)O2)[C@H](C)[C@@H](O[C@@H]2O[C@H](C)C[C@H](N(C)C)[C@H]2O)[C@](C)(OC)C[C@@H](C)C(=O)[C@H](C)[C@@H](O)[C@]1(C)O	broth dilution	V133	-	-	Mycobacterium abscessus	MIC	0.125 µg/mL